The source of these data is US5688773A, “Method of selectively destroying neoplastic cells” (priority 1994, dated 1997).

Read-outs that look alike come from different tables or passages of the source.

Data set [1] relates to C6 cells exposed to CM from C6-P450. Briefly: C6 colony formation after conditioned medium from drug-exposed cells.
Data set [2] has as its system C6 cells. Briefly: Trypsinization and replating assay. The format is cell-based, rat. To be noted: Table V panel B; survivors of panel A replated, nine days. As to the method:
Trypsinization and replating assay: To determine the temporal kinetics of CPA-mediated cytotoxicity, 2×10^6 cells were plated onto each 10 cm dish. Twenty-four hours later, 0.5 mM CPA was added and cells were incubated for the times indicated in each figure. Cells were then trypsinized and replated at a density of 2×10^5 cells/10 cm dish. Nine days later, cell numbers were evaluated by Coulter counting.

Data set [3] concerns C6 cells. The experiment in a line: Cell proliferation assay. The format is cell-based, rat. The following applies: 0.5 mM, four days. As to the method:
Cell proliferation assays: For cell proliferation assays, cells (2×10^5 per dish, unless otherwise noted) were plated onto 10 cm dishes. Twenty-four hours later, CPA, T4P, or DCPA were added to a final concentration of 0.5 mM. Incubations were continued for four days and cell numbers were assayed using a Coulter counter (Coulter Electronics Inc.), after harvesting in trypsinEDTA.

Data set [4] relates to C6 cells exposed to CM from C6. The experiment in a line: C6 colony formation after conditioned medium from drug-exposed cells. The format is cell-based, rat. The following applies: Table V panel C; CM from treated C6 cultures.
In data set [5] the test system is C6-P450 cells. The experiment in a line: Trypsinization and replating assay. Format: cell-based, rat.
Data set [6] has as its system C6-P450 cells. The experiment in a line: Cell proliferation assay. To be noted: 0.5 mM, four days.
The conditions of data set [7]: human plasma; cited from earlier work.
For data set [8] the following is noted: rat plasma; cited from earlier work.

Regarding trans-4-phenylcyclophosphamide, the “Toxicity of conditioned medium to C6 cell growth / colony formation” value in data set [1] (CM from treated C6-P450 cells, nine days) is recorded as “minimal effects”. Also, the “Secretion effect, C6 colony number” value in data set [1] (Table V panel C, CM from treated C6-P450 cultures) is 279±3; in data set [4] it was 277±1.8. In addition, the “Trypsinization and replating assay, cell count” value was 19±1.03 in the data set with C6 cells [2] and 0.31±0.07 in the data set with C6-P450 cells [5] (Table V panel B, survivors of panel A replated, nine days). In addition, the “inhibition in cell proliferation compared to untreated cells” value in the data set on C6 cells [3] is 20%. Besides, the “Cell proliferation assay, number of cells” value is listed as 16.6±0.87 ×10^6 in the data set with C6 cells [3] (Table V panel A) and 5.59±0.07 ×10^6 with C6-P450 cells [6] (Table V panel A). The “Proliferation of treated cells after replating” value in the data set on C6-P450 cells [5] (0.5 mM, trypsinization and replating) is reported as “completely inhibited”. Further, the “inhibition of proliferation compared to untreated cells” value with C6-P450 cells [6] (5760 min) amounted to 79%.

Take `O=P1(N(CCCl)CCCl)NC(O)CCO1` (stereo not drawn): the t1/2 in data set [7] was 3.3 min; in data set [8] it was 5.2 min.
